Pooled drug test results. Numbers come from NIAID ChemDB, via PubChem.

All rows: growth or infection tests; species: Mycobacterium smegmatis; measure: MIC

Conditions beyond the fields shown may differ between rows. a–b is a range or a potency band. Blank or dashed fields: not listed here.

| structure | strain or isolate | read by | result |
|---|---|---|---|
| Cc1nn(-c2ccccc2)c2c1C(c1cn(-c3ccccc3)nc1-c1ccc(F)cc1)C1=C(NC(C)(c3cc(O)cc(O)c3)NC1=O)O2 | NCIM 5138 | agar diffusion / agar | 40 µg/mL |
| CCC(CO)NCCCNC(CC)CO | ATCC 607 | - | 60 µg/mL |
| Cc1c(N2CCc3ccccc3C2)c(F)cn2c(=O)c(C(=O)O)cc(C3CC3)c12 | ATCC114 | - | 50 µg/mL |
| Cc1nc(-c2ccc(Cl)cc2)sc1-c1csc(-c2ccc(Cl)cc2)n1 | - | absorbance | 74.86 µM |
| Cc1c(N2CCNC(C)C2)c(F)cn2c(=O)c(C(=O)O)cc(C3CC3)c12.Cl | ATCC114 | - | 0.78 µg/mL |
| CC1CN(c2nc3c(cc2F)c(=O)c(C(=O)O)cn3C2CC2)CCN1 | ATCC 19420 | - | 0.5 µg/mL |
| Cc1c(N2CCC[C@@H](N)C2)c(F)cn2c(=O)c(C(=O)O)cc(C3CC3)c12 | ATCC114 | - | 0.78 µg/mL |
| CC(C)Cc1cnc(C(=O)/C=C/c2ccc(Cl)cc2)cn1 | CCM | absorbance | >125 µg/mL |
| CC(O)C(C)NCCNC(C)C(C)O.Cl.Cl | ATCC 607 | - | >250 µg/mL |
| CC1CN(c2c(F)cc3c(=O)c(C(=O)O)cn(C4CC4)c3c2Cl)CC(C)N1 | ATCC 19420 | - | 0.25 µg/mL |
| Cc1ccc(Nc2cc(=O)n3c(-c4ccc(N)cc4)csc3n2)cc1 | - | broth dilution / visual reading | >800 µg/mL |
| COc1ccc(CCN(C)CCCC(C#N)(c2ccc(OC)c(OC)c2)C(C)C)cc1OC | mc2 155 / ATCC 700084 | broth dilution | 300 µg/mL |
| CCCCc1cnc(C(=O)/C=C/c2ccc(Cl)cc2)cn1 | CCM | absorbance | >250 µg/mL |
| CCc1cc(C(=O)O)c(=O)n2cc(F)c(N3CCC(N)C3)c(C)c12.Cl | ATCC114 | - | 0.1 µg/mL |
| O=C(/C=C/c1ccc(Cl)cc1)c1cnccn1 | CCM | absorbance | 15.3 µg/mL |
| NC1CCN(c2c(F)cn3c(=O)c(C(=O)O)cc(C4CC4)c3c2Cl)C1.O=C(O)C(F)(F)F | ATCC114 | - | 6.2 µg/mL |
| Cc1ccc(-c2nc(-c3sc(-c4ccc(F)cc4)nc3C)cs2)cc1 | - | absorbance | >100 µM |
| CCN1CCN(c2c(F)cc3c(=O)c(C(=O)O)cn(-c4ccc(F)cc4F)c3c2F)CC1 | ATCC 19420 | - | 2 µg/mL |
| C/C=C(C)\C=C(/C)[C@@H](O)[C@H](C)[C@@H](O)[C@@H]1OC(=O)/C(CCCCCC)=C/c2csc(n2)[C@H](C)[C@@H](O)C[C@H](O)/C=C/C=C\C[C@@H]1O | - | visual reading | 64 µg/mL |
| Cc1ccccc1-c1nn(-c2ccccc2)cc1/C=C/c1nc2sccn2c(=O)c1-c1ccc(C(F)(F)F)cc1 | mc2155 | colony count | 71 µg/mL |
| CC(C)(C)c1cnc(C(=O)/C=C/c2ccc(F)cc2)cn1 | CCM | absorbance | >125 µg/mL |
| CNCC1COC2(CCN(c3c(F)cn4c(=O)c(C(=O)O)cc(C5CC5)c4c3C)CC2)O1.Cl | ATCC114 | - | 6.2 µg/mL |
| O=c1cc(Nc2ccc(S(=O)(=O)O)cc2)nc2scc(-c3cccc([N+](=O)[O-])c3)n12 | - | broth dilution / visual reading | >800 µg/mL |
| Cc1nc(-c2ccccc2)sc1-c1csc(-c2ccc(F)c(Cl)c2)n1 | - | absorbance | 71.1 µM |
| CCN1CCN(c2c(F)cc3c(=O)c(C(=O)O)cn(C4CC4)c3c2Cl)CC1 | ATCC 19420 | - | 0.25 µg/mL |
| Cc1c(N2C=NCC2)c(F)cn2c(=O)c(C(=O)O)cc(C3CC3)c12.Cl | ATCC114 | - | 25 µg/mL |
| Cc1nn(-c2ccccc2)c2c1C(c1cn(-c3ccccc3)nc1-c1ccc(Cl)cc1)C1=C(NC(C)(c3cc(O)ccc3Cl)NC1=O)O2 | NCIM 5138 | agar diffusion / agar | 100 µg/mL |
| O=c1c(-c2ccc(C(F)(F)F)cc2)c(/C=C/c2cn(-c3ccccc3)nc2-c2ccc(Br)cc2)nc2sccn12 | mc2155 | colony count | 69 µg/mL |
| C=Cc1c(C)c2cc3nc(cc4nc(cc5[nH]c(cc1[nH]2)c(C)c5CC)C(C)=C4CCC(=O)O)C(CCC(=O)O)=C3C | LR222 | - | 20 µg/mL |
| COc1ccc(-c2nn(-c3ccccc3)cc2C2C3=C(NC(C)(c4cc(O)ccc4Cl)NC3=O)Oc3c2c(C)nn3-c2ccccc2)cc1 | NCIM 5138 | agar diffusion / agar | 90 µg/mL |
| CC(CO)(CO)NCCNC(C)(CO)CO.Cl.Cl | ATCC 607 | - | 250 µg/mL |
| Cc1nn(-c2ccccc2)c2c1C(c1cn(-c3ccccc3)nc1-c1ccc(F)cc1)C1=C(NC(C)(c3cc(O)c(Cl)c(O)c3)NC1=O)O2 | NCIM 5138 | agar diffusion / agar | 70 µg/mL |
| CC(C)Cc1cnc(C(=O)/C=C/c2ccc(Br)cc2)cn1 | CCM | absorbance | 250 µg/mL |
| CC(C)=CCc1cc(/C=C/C(=O)c2ccc(O)c(CC=C(C)C)c2O)ccc1O | ATCC 700084 | - | 9.76 µg/mL |
| N#CC(C#N)=NNc1cccc(Cl)c1 | mc2 155 / ATCC 700084 | broth dilution | 25 µg/mL |
| Cl.Cl.OCC(CO)(CO)NCCNC(CO)(CO)CO | ATCC 607 | - | >250 µg/mL |
| Nc1ccc(-c2csc3nc(Nc4ccc(S(=O)(=O)O)cc4)cc(=O)n23)cc1 | - | broth dilution / visual reading | 100 µg/mL |
| OC1CCCCC1NCCNC1CCCCC1O | ATCC 607 | - | 250 µg/mL |
| CCCCCC/C1=C\c2csc(n2)[C@H](C)[C@@H](O)C[C@H](O)/C=C/C=C\C[C@H](O)[C@H]([C@H](O)[C@@H](C)/C=C(C)/C=C(\C)C(C)OC)OC1=O | - | visual reading | 32 µg/mL |
| Cc1cc(CN2CCN(C)CC2)c(C)n1Cc1ccccc1 | 103599 | - | >64 µg/mL |
| NNC(=O)c1ccncc1 | CCM | absorbance | 7.81–15.6 µg/mL |
| N#Cc1ccc(-c2c(/C=C/c3cn(-c4ccccc4)nc3-c3ccccc3Br)nc3sccn3c2=O)cc1 | mc2155 | colony count | 55 µg/mL |
| CCCc1c(CC)c2[n]3c1C=C1N=C(C=c4c(CC)c(CC)c([n]4[Ga]3)=CC3=NC(=C2)C(CC)=C3CC)C(CC)=C1CC | LR222 | - | 5 µg/mL |
| CC[C@H](CO)N1CCN([C@@H](CC)CO)CC1.Cl.Cl | ATCC 607 | - | >250 µg/mL |
| CC1CN(c2c(F)cc3c(=O)c(C(=O)O)cn(C4CC4)c3c2Br)CCN1 | ATCC 19420 | - | 0.06 µg/mL |
| CCCCN(CCCC)CCc1c[nH]c2ccccc12 | ATCC 700084 | - | 9.76 µg/mL |
| CCCCCCn1c(-c2ccc(Cl)cc2)cc(CN2CCN(C)CC2)c1C | 103599 | - | 8 µg/mL |
| O=C(O)c1cn(-c2ccc(F)cc2F)c2nc(N3CCNCC3)c(F)cc2c1=O | ATCC 19420 | - | 0.5 µg/mL |
| NNC(=O)c1ccncc1 | - | absorbance | 36.46 µM |
| C=CC1=C(C)C2=Cc3c(C=C)c(C)c4[n]3[Sb][n]3c(c(C)c(CCC(=O)O)c3=CC3=NC(=C4)C(C)=C3CCC(=O)O)=CC1=N2 | LR222 | - | 20 µg/mL |
| Cc1ccc(Nc2cc(=O)n3c(-c4cccc(N)c4)csc3n2)cc1 | - | broth dilution / visual reading | 800 µg/mL |
| Cc1c(CN2CCOCC2)c(CN2CCOCC2)c(-c2ccc(Cl)cc2)n1C1CCCCC1 | 103599 | - | 8 µg/mL |
| O=[N+]([O-])[O][Ga]([O][N+](=O)[O-])[O][N+](=O)[O-] | LR222 | - | 400 µM |
| Cc1nc(-c2ccccc2)sc1-c1csc(-c2ccc(Br)cc2)n1 | - | absorbance | 80.66 µM |
| CC1CN(c2nc3c(cc2F)c(=O)c(C(=O)O)cn3C2CC2)CC(C)N1 | ATCC 19420 | - | 0.5 µg/mL |
| C/C=C(C)/C=C(\C)[C@@H](O)[C@H](C)[C@@H](O)[C@@H]1OC(=O)/C(CCCCCC)=C/c2csc(n2)[C@H](C)[C@@H](O)C[C@H](O)/C=C/C=C\C[C@@H]1O | - | visual reading | 64 µg/mL |
| Cc1ccc(-c2nn(-c3ccccc3)cc2/C=C/c2nc3sccn3c(=O)c2-c2ccc(C#N)cc2)cc1 | mc2155 | colony count | 15 µg/mL |
| C[C@H]1c2cccc(O)c2C(O)=C2C(=O)[C@]3(O)C(O)=C(C(N)=O)C(=O)[C@@H](N(C)C)[C@@H]3[C@@H](O)[C@@H]21 | A28314 | - | 0.06 µg/mL |
| C=CC1=C(C)C2=Cc3c(C)c(CCC(=O)O)c4[n]3[Ga][n]3c(c(C)c(CC)c3=CC3=NC(=C4)C(CCC(=O)O)=C3C)=CC1=N2 | LR222 | - | 0.4 µg/mL |
| Cc1ccc(-c2ccc(Cl)cc2)[nH]1 | 103599 | - | 4 µg/mL |
| Cc1ccc(Nc2cc(=O)n3c(-c4cccc([N+](=O)[O-])c4)csc3n2)cc1 | - | broth dilution / visual reading | >800 µg/mL |
| CNCC1CCN(c2cc3c(cc2F)c(=O)c(C(=O)O)cn3C(C)(C)C)C1 | ATCC 19420 | - | 0.25 µg/mL |
| COc1ccccc1-c1nn(-c2ccccc2)cc1/C=C/c1nc2sccn2c(=O)c1-c1ccc(C(F)(F)F)cc1 | mc2155 | colony count | 71 µg/mL |
| Cc1ccc(-c2nc(C)c(-c3csc(-c4ccccc4)n3)s2)cc1 | - | absorbance | 90.99 µM |
| CCN1CCN(c2c(F)cc3c(=O)c(C(=O)O)cn(C4CC4)c3c2OC)CC1 | ATCC 19420 | - | ≤0.03 µg/mL |
| CCCc1cnc(C(=O)/C=C/c2ccc(Cl)cc2)cn1 | CCM | absorbance | >500 µg/mL |

A second listing of 5 rows from above:

| structure | strain or isolate | read by | result |
|---|---|---|---|
| C=Cc1c(C)c2cc3nc(cc4nc(cc5[nH]c(cc1[nH]2)c(C)c5CC)C(C)=C4CCC(=O)O)C(CCC(=O)O)=C3C | LR222 | - | 20 µg/mL |
| C/C=C(C)/C=C(\C)[C@@H](O)[C@H](C)[C@@H](O)[C@@H]1OC(=O)/C(CCCCCC)=C/c2csc(n2)[C@H](C)[C@@H](O)C[C@H](O)/C=C/C=C\C[C@@H]1O | - | visual reading | 64 µg/mL |
| CC1CN(c2c(F)cc3c(=O)c(C(=O)O)cn(C4CC4)c3c2Cl)CC(C)N1 | ATCC 19420 | - | 0.25 µg/mL |
| Cc1c(N2CCC[C@@H](N)C2)c(F)cn2c(=O)c(C(=O)O)cc(C3CC3)c12 | ATCC114 | - | 0.78 µg/mL |
| CC(O)C(C)NCCNC(C)C(C)O.Cl.Cl | ATCC 607 | - | >250 µg/mL |